Compound potency records, mixed from different reports. Data source: NIAID ChemDB in PubChem.

All rows: target-level tests; organism: HIV-1; protein: Protease; endpoint: inhibition

Percent inhibition refers to the dose given; in toxicity tests it is the harm to the cells. Lines come from different laboratories, so protocols vary. An empty or dashed field is not shown.

smiles,tested at,read by,value
O=C1CC2C(=O)Oc3cc(cc(O)c3O)C(=O)O[C@@H]3O[C@@H]4COC(=O)c5cc(O)c(O)c(c5[C@H]2C(=O)O[C@@H]2[C@H]3OC(=O)c3cc(O)c(O)cc3-c3c(cc5nc6ccccc6nc5c3O)C(=O)O[C@@H]24)O1,50 µg/mL,fluorescence,37.2%
CC(C)[C@H](NC(=O)OCCN1CCOCC1)C(=O)N[C@@H](Cc1ccccc1)[C@@H](O)[C@H](Cc1ccccc1)NC(=O)[C@@H](NC(=O)OCc1ccccc1)C(C)C,0.005 µM,fluorescence,40%
Cc1ccccc1-n1nnc(C(c2ccccc2)(c2ccccc2)n2ccnc2)c1C,0.4 µg/mL,substrate cleavage / fluorescence,8.9%
O=c1cc(-c2ccc(O)c(O)c2)oc2cc(O)cc(O)c12,50 µg/mL,HPLC,42.4%
CC(C)(C)NC(=O)[C@@H]1CSCN1C(=O)[C@@H](O)[C@H](Cc1ccccc1)NC(=O)CC(C)(C)C(=O)O,93 µM,,5%
COc1cc(OC)cc(C(=O)Oc2ccc3c(c2)C(C)=CC(C)(C)N3)c1,150 µM,,40.78%
O=c1cc(-c2ccc(O)cc2)oc2cc(O)c(O)c(O)c12,50 µg/mL,fluorescence,73.4%
CC(C)[C@H](NC(=O)Cc1cccnc1)C(=O)N[C@@H](Cc1ccccc1)[C@@H](O)[C@H](O)[C@H](Cc1ccccc1)NC(=O)[C@@H](NC(=O)Cc1cccnc1)C(C)C,0.01 µM,fluorescence,62%
O=C(/C=C/c1ccc(O)c(O)c1)c1ccc(O)cc1O,50 µg/mL,fluorescence,57.9%
CC(C)[C@H](NC(=O)OCc1cccnc1)C(=O)N[C@@H](Cc1ccccc1)[C@@H](O)[C@@H](O)[C@H](Cc1ccccc1)NC(=O)OC(C)(C)C,0.001 µM,fluorescence,40%
O=c1[nH]c2ccc(S(=O)(=O)NCc3ccccc3)cc2o1,150 µM,,25.52%
COc1cc(O)c2c(=O)c(O)c(-c3ccc(O)c(O)c3)oc2c1,50 µg/mL,fluorescence,41.6%
Cc1c(O)cccc1C(=O)N[C@@H](Cc1ccccc1)[C@H](O)C(=O)N1CSC(C)(C)[C@H]1C(=O)NC(C)(C)C,87.6 µM,,0.05%
Cc1nc2nc(NCc3cccc(Br)c3)[nH]n2c(=O)c1Cl,150 µM,,28.8%
CC(C)[C@H](NC(=O)c1ccncc1)C(=O)N[C@@H](Cc1ccccc1)C(O)[C@H](Cc1ccccc1)NC(=O)[C@@H](NC(=O)c1ccncc1)C(C)C,0.1 µM,fluorescence,82%
CC(C(=O)O)C(C)C(=O)N[C@@H](Cc1ccccc1)[C@H](O)C(=O)N1CSC(C)(C)[C@H]1C(=O)NC(C)(C)C,77.5 µM,,0.05%
CC(C)[C@H](NC(=O)Cn1ccnc1)C(=O)N[C@@H](Cc1ccccc1)C(O)[C@H](Cc1ccccc1)NC(=O)[C@@H](NC(=O)OCc1ccccc1)C(C)C,0.01 µM,fluorescence,31%
O=c1c(O)c(-c2ccccc2O)oc2cc(O)cc(O)c12,50 µg/mL,fluorescence,41.4%
CO[C@@H](Cc1ccccc1)C(F)(F)C(=O)[C@H](Cc1ccccc1)NC(=O)[C@@H](NC(=O)OCc1ccccc1)C(C)C,0.01 µM,fluorescence,41%
O=C1CCc2cc(S(=O)(=O)NC(C(=O)NCc3ccco3)c3ccccc3)ccc2N1,150 µM,,34.78%
CC(C)[C@H](NC(=O)OCc1cccnc1)C(=O)N[C@@H](Cc1ccccc1)[C@H](O)[C@@H](O)[C@H](Cc1ccccc1)NC(=O)[C@@H](NC(=O)OCc1cccnc1)C(C)C,0.001 µM,fluorescence,78%
O=C1C[C@@H](c2ccc(O)cc2)Oc2cc(O)cc(O)c21,50 µg/mL,fluorescence,17%
CC(C)[C@H](NC(=O)OCc1ccccc1)C(=O)N[C@@H](Cc1ccccc1)[C@H](O)[C@H](O)[C@H](Cc1ccccc1)NC(=O)OC(C)(C)C,0.005 µM,fluorescence,86%
O=C1O[C@H]2[C@@H]3OC(=O)c4cc(O)c(O)c(O)c4-c4c(cc(O)c(O)c4O)C(=O)OC[C@H]2O[C@@H](OC(=O)c2cc(O)c(O)c(O)c2)[C@@H]3OC(=O)c2cc(O)c(O)c3c2[C@@H]2C1=CC(=O)[C@](O)(O3)C2(O)O,50 µg/mL,fluorescence,81%

Again, the opening 3 rows:

| smiles | tested at | read by | value |
|---|---|---|---|
| O=C1CC2C(=O)Oc3cc(cc(O)c3O)C(=O)O[C@@H]3O[C@@H]4COC(=O)c5cc(O)c(O)c(c5[C@H]2C(=O)O[C@@H]2[C@H]3OC(=O)c3cc(O)c(O)cc3-c3c(cc5nc6ccccc6nc5c3O)C(=O)O[C@@H]24)O1 | 50 µg/mL | fluorescence | 37.2% |
| CC(C)[C@H](NC(=O)OCCN1CCOCC1)C(=O)N[C@@H](Cc1ccccc1)[C@@H](O)[C@H](Cc1ccccc1)NC(=O)[C@@H](NC(=O)OCc1ccccc1)C(C)C | 0.005 µM | fluorescence | 40% |
| Cc1ccccc1-n1nnc(C(c2ccccc2)(c2ccccc2)n2ccnc2)c1C | 0.4 µg/mL | substrate cleavage / fluorescence | 8.9% |